Values of other authors as cited in paper PMC10173076 (Molecular Therapy Oncolytics, 2023).

Tested on: subcutaneous non-small cell lung tumors
Settings: AdSSTR2-treated mice; 48 h post-RP; ref 11 (Rogers et al.)

Substance: ^111In-DTPA-D- Phe1-octreotide
- tumor uptake: 1.3% ± 0.7%
